Assay results published in PubChem BioAssay AID1445 (SRMLSC, 2008).
Only a part is listed here, and it is no random draw. Potency and affinity values are given separately. Calls of active or inactive are those of the source.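 Rule for the calls: active = primary inhibition above the hit cutoff, then over 50% inhibition at one or more dose response concentrations (cut at about 23% in these data, passing the limit was not always enough); inconclusive = conflicting primary data, or primary hits not chosen for dose response; inactive = low primary inhibition, or under 50% at every dose.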

By UniProt entry, the sequences of proteins in these tests, tags left out. Where a name states a change or a piece, a line headed by the entry shows the natural chain unless it says otherwise.
UniProt O96935: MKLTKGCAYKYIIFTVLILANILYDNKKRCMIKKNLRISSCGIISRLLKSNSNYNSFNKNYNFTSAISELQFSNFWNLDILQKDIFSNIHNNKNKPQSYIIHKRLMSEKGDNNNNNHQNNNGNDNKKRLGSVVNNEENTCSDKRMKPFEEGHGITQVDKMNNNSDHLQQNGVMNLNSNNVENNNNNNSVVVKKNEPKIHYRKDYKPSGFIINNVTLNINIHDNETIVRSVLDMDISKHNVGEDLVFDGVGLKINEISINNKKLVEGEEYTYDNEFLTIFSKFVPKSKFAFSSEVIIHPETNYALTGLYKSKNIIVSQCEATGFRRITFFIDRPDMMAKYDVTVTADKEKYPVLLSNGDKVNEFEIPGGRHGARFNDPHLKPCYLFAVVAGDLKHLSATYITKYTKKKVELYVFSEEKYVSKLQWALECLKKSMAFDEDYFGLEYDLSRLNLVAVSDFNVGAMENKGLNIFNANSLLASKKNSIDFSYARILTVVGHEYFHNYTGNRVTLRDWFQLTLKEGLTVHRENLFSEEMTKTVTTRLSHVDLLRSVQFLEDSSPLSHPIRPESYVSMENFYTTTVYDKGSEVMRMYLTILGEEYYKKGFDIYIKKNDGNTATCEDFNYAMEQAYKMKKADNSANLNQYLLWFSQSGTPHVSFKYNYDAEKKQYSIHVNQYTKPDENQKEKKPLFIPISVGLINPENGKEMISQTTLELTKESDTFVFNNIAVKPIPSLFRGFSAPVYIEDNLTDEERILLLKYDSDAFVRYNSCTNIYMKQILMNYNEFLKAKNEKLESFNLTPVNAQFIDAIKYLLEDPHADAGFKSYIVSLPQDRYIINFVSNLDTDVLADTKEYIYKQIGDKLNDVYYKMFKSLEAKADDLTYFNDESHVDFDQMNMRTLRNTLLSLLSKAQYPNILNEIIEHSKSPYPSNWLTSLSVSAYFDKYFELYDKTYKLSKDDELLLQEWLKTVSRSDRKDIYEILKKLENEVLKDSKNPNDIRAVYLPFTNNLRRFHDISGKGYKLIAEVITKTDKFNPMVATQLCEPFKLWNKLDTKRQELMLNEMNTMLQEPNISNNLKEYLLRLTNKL

The compounds below were run against Aminopeptidase N (Plasmodium falciparum (isolate 3D7)) (UniProt O96935) (assay: P. falciparum M1AAP inhibitors, biochemical, fluorogenic H-Leu-NHMec substrate, 1536-well (AID 1445;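 note: plate controls were DMSO full reaction for no effect and no enzyme background for full effect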)). Conditions: recombinant M1AAP, H-Leu-NHMec fluorogenic kinetic assay; at 30 µM; active compounds read high.
In the case of O=C(OC1CN2CCC1CC2)c1ccc(Cl)cc1 (stereo unspecified), the inhibition is reported as inactive: -1.41%.
In the case of COc1cc(C(=O)NCC2(N3CCOCC3)CCCCC2)cc(Cl)c1OC(C)C, the inhibition is reported as inactive: 5.65%.
For O=[As](O)(O)c1cccnc1, the inhibition was inactive: 0.82%.
With O=[As](O)(c1cccc(O)c1)c1cccc(O)c1 the inhibition was inactive: 3.55%.
For Cc1cccc(OCC(=O)OC2CN3CCC2CC3)c1 (stereo unspecified), the inhibition was inactive: 5.19%.
In the case of Nc1cccc2c([As](=O)(O)O)cccc12, the inhibition is reported as inactive: -0.6%.
Cc1ccc(NCCc2c([N+](=O)[O-])cc([N+](=O)[O-])cc2[N+](=O)[O-])cc1 was tested, and the inhibition was inactive: 8.89%.
CCCOP(=S)(Nc1nc(N)cc(=O)[nH]1)OCCC was tested, and the inhibition was inactive: -1.88%.
COc1cc(C2NCCC3(OCCO3)C2(C)C)cc(OC)c1OC (stereo unspecified) was tested, and the inhibition was inactive: 1.15%.
With CCOP(=O)(Nc1cccc2ccccc12)OCC the inhibition was inactive: 6.05%.
For O=P1(Nc2ccccn2)COc2ccccc2OC1, the inhibition was inactive: 8.23%.
CCOP(=O)(Nc1ccc(C)cn1)OCC was tested, and the inhibition was inactive: -4.97%.
For Clc1n[nH]nc1-c1nn[nH][15n]1, the inhibition was inactive: 22.6%.
With CC(C)(C)C(=O)NC(Sc1ncccn1)C(Cl)(Cl)Cl (stereo unspecified) the inhibition was inactive: -0.4%.
In the case of CN(C(=O)Cc1ccc(Cl)c(Cl)c1)[C@@H]1CCCC[C@H]1N1CCCC1, the inhibition is reported as inactive: -3.71%.
For CC(C)/C=N\N=C(\N)N[N+](=O)[O-], the inhibition was inactive: 3.44%.
For O=[As](O)(c1ccccc1Br)c1ccccc1Br, the inhibition was inactive: 4.03%.
Cc1nn(-c2ccccc2)c2c1P(=O)(N1CCOCC1)N(C)C(c1ccccc1)=N2 (stereo unspecified) was tested, and the inhibition was inactive: -0.77%.
CC1CCC(C(C)C)C(OP(=O)(Nc2ccccn2)c2ccccc2)C1 (stereo unspecified) was tested, and the inhibition was inactive: 6.17%.
With CN(C)C1(CNC(=O)c2ccc(S(C)(=O)=O)cc2)CCCCC1 the inhibition was inactive: -1.08%.
With O=C(/C=C/c1ccccc1)OC1CN2CCC1CC2 (stereo unspecified) the inhibition was inactive: -1.56%.
In the case of O=P1(Nc2ncccn2)COc2ccccc2OC1, the inhibition is reported as inactive: 10.6%.
For Nc1cccc([As](=O)(O)c2ccccc2)c1, the inhibition was inactive: 0.95%.
In the case of O=P1(Nc2ccc(Br)cn2)COc2ccccc2OC1, the inhibition is reported as inactive: 2.66%.
O=[As](O)(c1cccs1)c1cccs1 was tested, and the inhibition was inactive: 2.13%.
Cc1ccc(OCC(=O)OC2CN3CCC2CC3)cc1 (stereo unspecified) was tested, and the inhibition was inactive: 4.69%.
